{"source": "PubChem BioAssay AID624099 (ICCB-Longwood, 2012)", "purpose": "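Knock-downs relieving repression by E2 of an HPV18 LCR luciferase reporter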 (primary screen)", "system": "human C33A cervical carcinoma cells (HPV-negative) stably expressing BPV1 E2 and an HPV18 LCR luciferase reporter", "reagents": "siRNA pool against human genes, 40 nM", "time to read-out": "72 h", "read-out": "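HPV18 LCR reporter light per well, converted to plate-wise z-scores that exclude control wells, and averaged over triplicate plates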", "direction": "mean z-score and z-score: higher = stronger reporter signal, weaker E2 silencing", "rule for the call": "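Mean z ≥ 2 together with z ≥ 2 in two or more of the three replicates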", "note": "The whole screen tested about 21,000 reagents; this is a random part of them. 497 of them (2.4%) count as active. 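Higher z means weaker E2 silencing; only reporter increases were scored, and knock-downs that hurt cell survival may mask genuine repressor factors.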 The numbers tell different reagents against one gene apart. Reagent sequences are not shown."}
{"Target gene": "ACP2", "reagent": 1, "mean z-score": -0.22, "z-score, replicate A": 0.17, "z-score, replicate B": -0.72, "z-score, replicate C": -0.1, "outcome": "inactive"}
{"Target gene": "HVCN1", "reagent": 1, "mean z-score": 1.21, "z-score, replicate A": 1.36, "z-score, replicate B": 1.3, "z-score, replicate C": 0.99, "outcome": "inactive"}
{"Target gene": "OTOF", "reagent": 1, "mean z-score": -0.21, "z-score, replicate A": -0.37, "z-score, replicate B": -0.32, "z-score, replicate C": 0.05, "outcome": "inactive"}
{"Target gene": "LOC400890 (retired record)", "reagent": 1, "mean z-score": 0.03, "z-score, replicate A": -0.46, "z-score, replicate B": 0.12, "z-score, replicate C": 0.43, "outcome": "inactive"}
{"Target gene": "TERB1", "reagent": 1, "mean z-score": 1.19, "z-score, replicate A": 1.32, "z-score, replicate B": 1.4, "z-score, replicate C": 0.84, "outcome": "inactive"}
{"Target gene": "VIM", "reagent": 1, "mean z-score": -0.93, "z-score, replicate A": -0.93, "z-score, replicate B": -0.96, "z-score, replicate C": -0.9, "outcome": "inactive"}
{"Target gene": "POU3F1", "reagent": 1, "mean z-score": -1.18, "z-score, replicate A": -1.07, "z-score, replicate B": -1.2, "z-score, replicate C": -1.27, "outcome": "inactive"}
{"Target gene": "DDX18", "reagent": 1, "mean z-score": -0.96, "z-score, replicate A": -0.51, "z-score, replicate B": -1.31, "z-score, replicate C": -1.06, "outcome": "inactive"}
{"Target gene": "ACTRT2", "reagent": 1, "mean z-score": 0.36, "z-score, replicate A": 0.91, "z-score, replicate B": 0.14, "z-score, replicate C": 0.04, "outcome": "inactive"}
{"Target gene": "KRTAP10-9", "reagent": 1, "mean z-score": -0.29, "z-score, replicate A": -0.64, "z-score, replicate B": -0.57, "z-score, replicate C": 0.33, "outcome": "inactive"}
{"Target gene": "CASZ1", "reagent": 1, "mean z-score": 0.08, "z-score, replicate A": 0.36, "z-score, replicate B": -0.15, "z-score, replicate C": 0.03, "outcome": "inactive"}
{"Target gene": "CASZ1", "reagent": 2, "mean z-score": 0.95, "z-score, replicate A": 0.94, "z-score, replicate B": 1.19, "z-score, replicate C": 0.73, "outcome": "inactive"}
{"Target gene": "NINJ1", "reagent": 1, "mean z-score": 1.53, "z-score, replicate A": 1.41, "z-score, replicate B": 1.55, "z-score, replicate C": 1.64, "outcome": "inactive"}
{"Target gene": "CHRAC1", "reagent": 1, "mean z-score": -0.05, "z-score, replicate A": -0.04, "z-score, replicate B": -0.15, "z-score, replicate C": 0.03, "outcome": "inactive"}
{"Target gene": "RNF144B", "reagent": 1, "mean z-score": 0.36, "z-score, replicate A": 0.7, "z-score, replicate B": 0.3, "z-score, replicate C": 0.07, "outcome": "inactive"}
{"Target gene": "LINC00597", "reagent": 1, "mean z-score": -0.04, "z-score, replicate A": -0.13, "z-score, replicate B": -0.05, "z-score, replicate C": 0.06, "outcome": "inactive"}
{"Target gene": "LOC400577 (retired record)", "reagent": 1, "mean z-score": 0.4, "z-score, replicate A": 0.55, "z-score, replicate B": 0.34, "z-score, replicate C": 0.32, "outcome": "inactive"}
{"Target gene": "TIMM10", "reagent": 1, "mean z-score": 1.33, "z-score, replicate A": 1.36, "z-score, replicate B": 1.18, "z-score, replicate C": 1.45, "outcome": "inactive"}
{"Target gene": "LOC388687 (retired record)", "reagent": 1, "mean z-score": -0.15, "z-score, replicate A": 0, "z-score, replicate B": -0.07, "z-score, replicate C": -0.4, "outcome": "inactive"}
{"Target gene": "CHD6", "reagent": 1, "mean z-score": 0.1, "z-score, replicate A": 0, "z-score, replicate B": 0.13, "z-score, replicate C": 0.16, "outcome": "inactive"}
{"Target gene": "NPPC", "reagent": 1, "mean z-score": 0.46, "z-score, replicate A": 0.54, "z-score, replicate B": 0.7, "z-score, replicate C": 0.12, "outcome": "inactive"}
{"Target gene": "TMEM40", "reagent": 1, "mean z-score": -0.97, "z-score, replicate A": -1.22, "z-score, replicate B": -0.93, "z-score, replicate C": -0.76, "outcome": "inactive"}
{"Target gene": "KANK3", "reagent": 1, "mean z-score": -0.3, "z-score, replicate A": -0.06, "z-score, replicate B": -0.22, "z-score, replicate C": -0.63, "outcome": "inactive"}
{"Target gene": "OR7A17", "reagent": 1, "mean z-score": -0.31, "z-score, replicate A": -0.18, "z-score, replicate B": -0.55, "z-score, replicate C": -0.2, "outcome": "inactive"}
{"Target gene": "SRCAP", "reagent": 1, "mean z-score": -0.61, "z-score, replicate A": -0.41, "z-score, replicate B": -0.72, "z-score, replicate C": -0.71, "outcome": "inactive"}
{"Target gene": "CFAP157", "reagent": 1, "mean z-score": -0.61, "z-score, replicate A": -0.82, "z-score, replicate B": -0.88, "z-score, replicate C": -0.13, "outcome": "inactive"}
{"Target gene": "FZD7", "reagent": 1, "mean z-score": 0.91, "z-score, replicate A": 0.76, "z-score, replicate B": 0.93, "z-score, replicate C": 1.04, "outcome": "inactive"}

2 entries from above, reformatted.
TERB1 — mean z-score: 1.19; z-score, replicate A: 1.32; z-score, replicate B: 1.4; z-score, replicate C: 0.84; outcome: inactive
VIM — mean z-score: -0.93; z-score, replicate A: -0.93; z-score, replicate B: -0.96; z-score, replicate C: -0.9; outcome: inactive
